PubChem BioAssay AID504761 | Drosophila RNAi Screening Center – 2011

Aim: 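Genome-wide fly cell screen for genes dengue virus requires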 (primary screen)
Cell system: D.Mel-2 cells from Drosophila
Knock-down reagent: long dsRNA against Drosophila genes
Conditions: infection with dengue virus type 2; dose and infection time not stated
Measured: 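Per well on two replicate plates, imaging gave the percent of cells positive for viral envelope protein, ranked by infection, and a nuclear count of cells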
Direction: infection score: higher = more virus-infected cells; cell count: higher = more cells in the well
Call rule: 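Low infection ranks in the two replicates (chance level up to 0.065) followed by a retest with a 1.5-fold or larger significant decrease, p below 0.05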
Meaning of the calls: active = confirmed: knock-down lowers infection; inactive = not picked or not confirmed
In all, the deposit lists about 22,000 reagents; below is an unselected part of those that have a named target and a result. In the full data, 116 (0.52%) got an active call. 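Calls depend on retest data that are not deposited; infection was ranked per plate without normalising between plates; the unit of the infection score is not given.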 Raw values are not corrected between plates. Reagents against one gene are numbered here. A plus sign joins genes that one reagent is predicted to hit. Further read-outs or replicates are left out here. The record does not give: the amount of reagent, the time to read-out.

| Target gene | reagent | infection score, replicate 1 | infection score, replicate 2 | cell count, replicate 1 | Call |
| --- | --- | --- | --- | --- | --- |
| ND-SGDH | 1 | 2.65 | 6.35 | 6464 | inactive |
| CG34112 | 1 | 4.15 | 1.25 | 6000 | inactive |
| CG9813 | 1 | 9.47 | 16.6 | 5842 | inactive |
| CG9813 | 2 | 11.1 | 6.09 | 5902 | inactive |
| nompC | 1 | 2.97 | 0.29 | 6532 | inactive |
| CG17124 | 1 | 3.38 | 3.47 | 6413 | inactive |
| CG17124 | 2 | 1.53 | 31.4 | 459 | inactive |
| Gr22f | 1 | 15.1 | 10.9 | 6525 | inactive |
| Gr22f | 2 | 1.2 | 8.28 | 6318 | inactive |
| CG7953 | 1 | 10.9 | 25.9 | 6013 | inactive |
| Muc30E | 1 | 1.42 | 0.41 | 6500 | active |
| Muc30E | 2 | 2.41 | 1.33 | 953 | inactive |
| CG11504 | 1 | 3.37 | 5.97 | 6181 | inactive |
| CG31954 | 1 | 5.91 | 4.29 | 6401 | inactive |
| CG31954 | 2 | 12.3 | 9.84 | 6608 | inactive |
| cerv | 1 | 1.95 | 8.33 | 6255 | inactive |
| cerv | 2 | 1.52 | 0.79 | 6137 | inactive |
| Spn28Dc | 1 | 1.75 | 9.03 | 6415 | inactive |
| SdhCL | 1 | 8.87 | 21.9 | 6808 | inactive |
| Jabba | 1 | 17.4 | 19.6 | 4426 | inactive |
| CG12730 | 1 | 13.1 | 12.7 | 4575 | inactive |
| CG9471 | 1 | 1.23 | 12.7 | 6445 | inactive |
| CG9471 | 2 | 8.98 | 8.51 | 5693 | inactive |
| ect | 1 | 25.7 | 20.4 | 6327 | inactive |
| ect | 2 | 1.93 | 1.95 | 5705 | inactive |
| ect | 3 | 3.93 | 4.09 | 6469 | inactive |
| ect | 4 | 16.2 | 6.62 | 6608 | inactive |
| chico | 1 | 20.6 | 6.95 | 6061 | inactive |
| CG5704 | 1 | 21 | 10 | 5842 | inactive |
| Mink | 1 | 4.36 | 11.7 | 6350 | inactive |
| spt4 | 1 | 9.41 | 13.6 | 6131 | inactive |
| eRF1 | 1 | 2.91 | 7.06 | 654 | inactive |
| eRF1 | 2 | 30.9 | 9.96 | 4466 | inactive |
| Obp8a | 1 | 2.8 | 3.13 | 6330 | inactive |
| Obp8a | 2 | 24.5 | 8.9 | 5992 | inactive |
| CG33791 + CG18170 | 1 | 3.56 | 6.61 | 6037 | inactive |
| CG33791 + CG18170 | 2 | 3.48 | 3.5 | 6127 | inactive |
| CG33791 + CG18170 | 3 | 3.3 | 2.58 | 6972 | inactive |
| CG32117 | 1 | 2.55 | 11.6 | 5718 | inactive |
